Laboratory results: US20220089698A1, “ANTIBODIES THAT TARGET HIV GP120 AND METHODS OF USE” (published 2022)

Tests used:
Assay in all cases: cell-based or functional assay
[1] = biological target: HIV-1 envelope glycoprotein (gp120) of virus 92US727 (HIV-1)
[2] = biological target: HIV-1 envelope glycoprotein (gp120) of virus VS001 (HIV-1)
[3] = biological target: HIV-1 envelope glycoprotein (gp120) of virus 7141 (HIV-1)

Binder	Neutralization IC50 [1]	Neutralization IC50 [2]	Neutralization IC50 [3]
3.1.5-1 (antibody, human IgG1, kappa) heavy: QVQLLQSGAAVTKPGASVRVSCEASGYNIRDYFIHWWRQAPGQGLQWVGWINPKTGQPNNPRQFQGRVSLTRHASWDFDTFSFYMDLKALRSDDTAVYFCARQRSDYWDFDVWGSGTQVTVSSASTKGPSVFPLAPSSKSTSGGTAALGCLVKDYFPEPVTVSWNSGALTSGVHTFPAVLQSSGLYSLSSVVTVPSSSLGTQTYICNVNHKPSNTKVDKKVEPKSCDKTHTCPPCPAPELLAGPDVFLFPPKPKDTLMISRTPEVTCVVVDVSHEDPEVKFNWYVDGVEVHNAKTKPREEQYNSTYRVVSVLTVLHQDWLNGKEYKCKVSNKALPLPEEKTISKAKGQPREPQVYTLPPSREEMTKNQVSLTCLVKGFYPSDIAVEWESNGQPENNYKTTPPVLDSDGSFFLYSKLTVDKSRWQQGNVFSCSVLHEALHSHYTQKSLSLSPGK light: not shown	> 17 µg/mL	0.23 µg/mL	9.8 µg/mL
1.1.121-1 (antibody, human IgG1, kappa) heavy: QVQLLQSGAAVTKPGASVRVSCEASGYNIRDYFIHWWRQAPGQGLQWVGWINPKTGQPNNPRQFQGRVSLTRHASWDFDTFSFYMDLKALRSDDTAVYFCARQRSDYWDFDVWGSGTQVTVSSASTKGPSVFPLAPSSKSTSGGTAALGCLVKDYFPEPVTVSWNSGALTSGVHTFPAVLQSSGLYSLSSVVTVPSSSLGTQTYICNVNHKPSNTKVDKKVEPKSCDKTHTCPPCPAPELLAGPDVFLFPPKPKDTLMISRTPEVTCVVVDVSHEDPEVKFNWYVDGVEVHNAKTKPREEQYNSTYRVVSVLTVLHQDWLNGKEYKCKVSNKALPLPEEKTISKAKGQPREPQVYTLPPSREEMTKNQVSLTCLVKGFYPSDIAVEWESNGQPENNYKTTPPVLDSDGSFFLYSKLTVDKSRWQQGNVFSCSVLHEALHSHYTQKSLSLSPGK light: not shown	> 37 µg/mL	1.3 µg/mL	28.7 µg/mL
1.1.75-1 (antibody, human IgG1, kappa) heavy: QVQLLQSGAAVTKPGASVRVSCEASGYNIRDYFIHWWRQAPGQGLQWVGWINPKTGQPNNPRQFQGRVSLTRHASWDFDTFSFYMDLKALRSDDTAVYFCARQRSDYWDFDVWGSGTQVTVSSASTKGPSVFPLAPSSKSTSGGTAALGCLVKDYFPEPVTVSWNSGALTSGVHTFPAVLQSSGLYSLSSVVTVPSSSLGTQTYICNVNHKPSNTKVDKKVEPKSCDKTHTCPPCPAPELLAGPDVFLFPPKPKDTLMISRTPEVTCVVVDVSHEDPEVKFNWYVDGVEVHNAKTKPREEQYNSTYRVVSVLTVLHQDWLNGKEYKCKVSNKALPLPEEKTISKAKGQPREPQVYTLPPSREEMTKNQVSLTCLVKGFYPSDIAVEWESNGQPENNYKTTPPVLDSDGSFFLYSKLTVDKSRWQQGNVFSCSVLHEALHSHYTQKSLSLSPGK light: not shown	> 50 µg/mL	0.5 µg/mL	11.3 µg/mL
1.1.122-1 (antibody, human IgG1, kappa) heavy: QVQLLQSGAAVTKPGASVRVSCEASGYNIRDYFIHWWRQAPGQGLQWVGWINPKTGQPNNPRQFQGRVSLTRHASWDFDTFSFYMDLKALRSDDTAVYFCARQRSDYWDFDVWGSGTQVTVSSASTKGPSVFPLAPSSKSTSGGTAALGCLVKDYFPEPVTVSWNSGALTSGVHTFPAVLQSSGLYSLSSVVTVPSSSLGTQTYICNVNHKPSNTKVDKKVEPKSCDKTHTCPPCPAPELLAGPDVFLFPPKPKDTLMISRTPEVTCVVVDVSHEDPEVKFNWYVDGVEVHNAKTKPREEQYNSTYRVVSVLTVLHQDWLNGKEYKCKVSNKALPLPEEKTISKAKGQPREPQVYTLPPSREEMTKNQVSLTCLVKGFYPSDIAVEWESNGQPENNYKTTPPVLDSDGSFFLYSKLTVDKSRWQQGNVFSCSVLHEALHSHYTQKSLSLSPGK light: not shown	> 42.4 µg/mL	0.32 µg/mL	6.79 µg/mL
1.1.120-1 (antibody, human IgG1, kappa) heavy: QVQLLQSGAAVTKPGASVRVSCEASGYNIRDYFIHWWRQAPGQGLQWVGWINPKTGQPNNPRQFQGRVSLTRHASWDFDTFSFYMDLKALRSDDTAVYFCARQRSDYWDFDVWGSGTQVTVSSASTKGPSVFPLAPSSKSTSGGTAALGCLVKDYFPEPVTVSWNSGALTSGVHTFPAVLQSSGLYSLSSVVTVPSSSLGTQTYICNVNHKPSNTKVDKKVEPKSCDKTHTCPPCPAPELLAGPDVFLFPPKPKDTLMISRTPEVTCVVVDVSHEDPEVKFNWYVDGVEVHNAKTKPREEQYNSTYRVVSVLTVLHQDWLNGKEYKCKVSNKALPLPEEKTISKAKGQPREPQVYTLPPSREEMTKNQVSLTCLVKGFYPSDIAVEWESNGQPENNYKTTPPVLDSDGSFFLYSKLTVDKSRWQQGNVFSCSVLHEALHSHYTQKSLSLSPGK light: not shown	> 32.9 µg/mL	0.88 µg/mL	17.8 µg/mL
3.1.20-1 (antibody, human IgG1, kappa) heavy: QVQLLQSGAAVTKPGASVRVSCEASGYNIRDYFIHWWRQAPGQGLQWVGWINPKTGQPNNPRQFQGRVSLTRHASWDFDTFSFYMDLKALRSDDTAVYFCARQRSDYWDFDVWGSGTQVTVSSASTKGPSVFPLAPSSKSTSGGTAALGCLVKDYFPEPVTVSWNSGALTSGVHTFPAVLQSSGLYSLSSVVTVPSSSLGTQTYICNVNHKPSNTKVDKKVEPKSCDKTHTCPPCPAPELLAGPDVFLFPPKPKDTLMISRTPEVTCVVVDVSHEDPEVKFNWYVDGVEVHNAKTKPREEQYNSTYRVVSVLTVLHQDWLNGKEYKCKVSNKALPLPEEKTISKAKGQPREPQVYTLPPSREEMTKNQVSLTCLVKGFYPSDIAVEWESNGQPENNYKTTPPVLDSDGSFFLYSKLTVDKSRWQQGNVFSCSVLHEALHSHYTQKSLSLSPGK light: not shown	> 50 µg/mL	0.95 µg/mL	22.1 µg/mL
3.1.19-1 (antibody, human IgG1, kappa) heavy: QVQLLQSGAAVTKPGASVRVSCEASGYNIRDYFIHWWRQAPGQGLQWVGWINPKTGQPNNPRQFQGRVSLTRHASWDFDTFSFYMDLKALRSDDTAVYFCARQRSDYWDFDVWGSGTQVTVSSASTKGPSVFPLAPSSKSTSGGTAALGCLVKDYFPEPVTVSWNSGALTSGVHTFPAVLQSSGLYSLSSVVTVPSSSLGTQTYICNVNHKPSNTKVDKKVEPKSCDKTHTCPPCPAPELLAGPDVFLFPPKPKDTLMISRTPEVTCVVVDVSHEDPEVKFNWYVDGVEVHNAKTKPREEQYNSTYRVVSVLTVLHQDWLNGKEYKCKVSNKALPLPEEKTISKAKGQPREPQVYTLPPSREEMTKNQVSLTCLVKGFYPSDIAVEWESNGQPENNYKTTPPVLDSDGSFFLYSKLTVDKSRWQQGNVFSCSVLHEALHSHYTQKSLSLSPGK light: not shown	> 50 µg/mL	0.57 µg/mL	23.9 µg/mL
3.1.16-1 (antibody, human IgG1, kappa) heavy: QVQLLQSGAAVTKPGASVRVSCEASGYNIRDYFIHWWRQAPGQGLQWVGWINPKTGQPNNPRQFQGRVSLTRHASWDFDTFSFYMDLKALRSDDTAVYFCARQRSDYWDFDVWGSGTQVTVSSASTKGPSVFPLAPSSKSTSGGTAALGCLVKDYFPEPVTVSWNSGALTSGVHTFPAVLQSSGLYSLSSVVTVPSSSLGTQTYICNVNHKPSNTKVDKKVEPKSCDKTHTCPPCPAPELLAGPDVFLFPPKPKDTLMISRTPEVTCVVVDVSHEDPEVKFNWYVDGVEVHNAKTKPREEQYNSTYRVVSVLTVLHQDWLNGKEYKCKVSNKALPLPEEKTISKAKGQPREPQVYTLPPSREEMTKNQVSLTCLVKGFYPSDIAVEWESNGQPENNYKTTPPVLDSDGSFFLYSKLTVDKSRWQQGNVFSCSVLHEALHSHYTQKSLSLSPGK light: not shown	> 43 µg/mL	2.15 µg/mL	39 µg/mL
3.1.2-1 (antibody, human IgG1, kappa) heavy: QVQLLQSGAAVTKPGASVRVSCEASGYNIRDYFIHWWRQAPGQGLQWVGWINPKTGQPNNPRQFQGRVSLTRHASWDFDTFSFYMDLKALRSDDTAVYFCARQRSDYWDFDVWGSGTQVTVSSASTKGPSVFPLAPSSKSTSGGTAALGCLVKDYFPEPVTVSWNSGALTSGVHTFPAVLQSSGLYSLSSVVTVPSSSLGTQTYICNVNHKPSNTKVDKKVEPKSCDKTHTCPPCPAPELLAGPDVFLFPPKPKDTLMISRTPEVTCVVVDVSHEDPEVKFNWYVDGVEVHNAKTKPREEQYNSTYRVVSVLTVLHQDWLNGKEYKCKVSNKALPLPEEKTISKAKGQPREPQVYTLPPSREEMTKNQVSLTCLVKGFYPSDIAVEWESNGQPENNYKTTPPVLDSDGSFFLYSKLTVDKSRWQQGNVFSCSVLHEALHSHYTQKSLSLSPGK light: not shown	> 50 µg/mL	0.73 µg/mL	21.9 µg/mL
1.1.42-1 (antibody, human IgG1, kappa) heavy: QVQLLQSGAAVTKPGASVRVSCEASGYNIRDYFIHWWRQAPGQGLQWVGWINPKTGQPNNPRQFQGRVSLTRHASWDFDTFSFYMDLKALRSDDTAVYFCARQRSDYWDFDVWGSGTQVTVSSASTKGPSVFPLAPSSKSTSGGTAALGCLVKDYFPEPVTVSWNSGALTSGVHTFPAVLQSSGLYSLSSVVTVPSSSLGTQTYICNVNHKPSNTKVDKKVEPKSCDKTHTCPPCPAPELLAGPDVFLFPPKPKDTLMISRTPEVTCVVVDVSHEDPEVKFNWYVDGVEVHNAKTKPREEQYNSTYRVVSVLTVLHQDWLNGKEYKCKVSNKALPLPEEKTISKAKGQPREPQVYTLPPSREEMTKNQVSLTCLVKGFYPSDIAVEWESNGQPENNYKTTPPVLDSDGSFFLYSKLTVDKSRWQQGNVFSCSVLHEALHSHYTQKSLSLSPGK light: not shown	> 50 µg/mL	0.9 µg/mL	> 50 µg/mL
1.1.123-1 (antibody, human IgG1, kappa) heavy: QVQLLQSGAAVTKPGASVRVSCEASGYNIRDYFIHWWRQAPGQGLQWVGWINPKTGQPNNPRQFQGRVSLTRHASWDFDTFSFYMDLKALRSDDTAVYFCARQRSDYWDFDVWGSGTQVTVSSASTKGPSVFPLAPSSKSTSGGTAALGCLVKDYFPEPVTVSWNSGALTSGVHTFPAVLQSSGLYSLSSVVTVPSSSLGTQTYICNVNHKPSNTKVDKKVEPKSCDKTHTCPPCPAPELLAGPDVFLFPPKPKDTLMISRTPEVTCVVVDVSHEDPEVKFNWYVDGVEVHNAKTKPREEQYNSTYRVVSVLTVLHQDWLNGKEYKCKVSNKALPLPEEKTISKAKGQPREPQVYTLPPSREEMTKNQVSLTCLVKGFYPSDIAVEWESNGQPENNYKTTPPVLDSDGSFFLYSKLTVDKSRWQQGNVFSCSVLHEALHSHYTQKSLSLSPGK light: not shown	> 43.8 µg/mL	0.23 µg/mL	11.2 µg/mL
